In test [1] the target is mini-collagen peptide H-Gly-Pro-Arg-Gly-(Pro-Hyp-Gly)12-NH2. The test is described as follows: SPR (Biacore); ratio of KD, ColHS2bS3 = 1.00. For orientation: Surface plasmon resonance follows binding to a sensor surface in real time, without labels.
For test [2] the target is unchanged. As to the kind of experiment: SPR (Biacore), peptide immobilized, equilibrium fit, apparent KD.

For “CBD (s3) derived from the Clostridium histolyticum class II collagenase ColH (from UniProt Q46085 905-1021)”, the Ratio in test [1] is 1.69. In addition, in test [2], the Kd worked out at 752 µM.

(Values after patent US20190376053A1.)
